From US10155971B2, “Rapid antibiotic susceptibility testing system based on bacterial immobilization using gelling agent, antibiotic diffusion and tracking of single bacterial cells” (SNU R & DB FOUNDATION, priority 2012, dated 2018)

What was measured:
[1] = test system: Escherichia coli ATCC 25922; assay: Rapid antibiotic susceptibility test (RAST) in microfluidic agarose channel (MAC), MIC by single-cell time-lapse imaging; format: cell-based; settings: E. coli ATCC 25922; RAST method
Experimental: Radial microfluidic channels with six branches were formed using soft-lithography. First, SU8 mold (2015 SU8, Microchem) was fabricated by employing photolithography. Polydimethylsiloxane (PDMS, Dow Corning) was mixed with a curing agent (10:1, w/w) and poured into the SU8. After baking at 150° C. for 10 min, the PDMS was peeled off and attached to the PDMS-coated slide glass by O2 plasma treatment to obtain a radial microfluidic channel chip capable of testing antibiotics having five concentrations and a control with no antibiotic. There were six main channels that carried one side-branched channel each. […] A mixture of agarose and bacteria was allowed to flow in the main channels, and the bioactive agents were allowed to flow in the respective side-branched channels. In the middle of each main channel, there were anchors in the form of micro-sized posts for forming an interface between the agarose and each of the bioactive agents. The posts blocked the agarose from flowing into the side-branched channel. The sizes of the posts and the pitches between the posts were determined by mathematical calculations. For appropriate hydrophobicity to occur in the channel, the channel was prepared one day before experiment to increase the surface tension after O2 plasma treatment. Agarose is solidified at a temperature lower than 36° C. The cultured bacteria were mixed with 2% agarose (1:3, v/v) at 45° C. and immediately injected into the microfluidic channels. The agarose-bacteria mixture was solidified at 25° C. for 1 min. The obtained microfluidic agarose channel (MAC) chip was placed on a hot plate and incubated at 37° C. […] The growth of the bacteria was monitored using a microscope. Bacterial growth was not inhibited and could be clearly monitored in the MAC system. […] The Matlab program calculated the areas that were occupied by each bacterium. […] The occupied areas were measured using the image processing program. […] Bacterial growth was monitored by using a microscope (40×) and a CCD camera. Images of bacterial growth were taken every hour and were analyzed by using the image processing program. […]

[2] = test system: Staphylococcus aureus ATCC 29213; assay: as above; format: cell-based; settings: S. aureus ATCC 29213; RAST method
Experimental: Radial microfluidic channels with six branches were formed using soft-lithography. First, SU8 mold (2015 SU8, Microchem) was fabricated by employing photolithography. Polydimethylsiloxane (PDMS, Dow Corning) was mixed with a curing agent (10:1, w/w) and poured into the SU8. After baking at 150° C. for 10 min, the PDMS was peeled off and attached to the PDMS-coated slide glass by O2 plasma treatment to obtain a radial microfluidic channel chip capable of testing antibiotics having five concentrations and a control with no antibiotic. There were six main channels that carried one side-branched channel each. […] A mixture of agarose and bacteria was allowed to flow in the main channels, and the bioactive agents were allowed to flow in the respective side-branched channels. In the middle of each main channel, there were anchors in the form of micro-sized posts for forming an interface between the agarose and each of the bioactive agents. The posts blocked the agarose from flowing into the side-branched channel. The sizes of the posts and the pitches between the posts were determined by mathematical calculations. For appropriate hydrophobicity to occur in the channel, the channel was prepared one day before experiment to increase the surface tension after O2 plasma treatment. Agarose is solidified at a temperature lower than 36° C. […] The growth of the bacteria was monitored using a microscope. Bacterial growth was not inhibited and could be clearly monitored in the MAC system. […] The Matlab program calculated the areas that were occupied by each bacterium. […] The occupied areas were measured using the image processing program. […] Bacterial growth was monitored by using a microscope (40×) and a CCD camera. Images of bacterial growth were taken every hour and were analyzed by using the image processing program. […] After image processing, the bacteria that occupied the area were measured and plotted on the graph for different concentrations of gentamicin according to the incubation time. […]

Compound | Time required to determine the MIC [1] | Time required to determine the MIC [2]
CCn1cc(C(=O)O)c(=O)c2cc(F)c(N3CCNCC3)cc21 [Norfloxacin] | 4 h | 7 h
NCC[C@H](O)C(=O)N[C@@H]1C[C@H](N)[C@@H](O[C@H]2O[C@H](CN)[C@@H](O)[C@H](O)[C@H]2O)[C@H](O)[C@H]1O[C@H]1O[C@H](CO)[C@@H](O)[C@H](N)[C@H]1O [Amikacin] | 3 h | 3 h
gentamicin [Geninmycin] | 4 h | 3 h
